Results of unrelated studies side by side (data: NIAID ChemDB).

Shared fields: toxicity to cultured cells; read-out: CC50

CCn: concentration that lowers growth or viability of the cells by n%.

{"smiles": "O=C(NCC1CCc2ccccc2N1)Nc1ccc(Br)c2ccccc12", "cells": "PBMC", "result": "50 µM"}
{"smiles": "CC[C@@H](CCC[C@@H](CO)N(CCC(C)C)S(=O)(=O)c1ccc(N)cc1)NC(=O)[C@@H](NC(=O)OC)C1c2ccccc2Oc2ccccc21", "cells": "T lymphoid cells", "method": "microscopy", "result": ">10 µM"}
{"smiles": "CN1C(=O)c2c(c3cccnc3n(O)c2=O)NC1c1cccc(Oc2ccccc2)c1", "cells": "HeLa", "result": "<100 µM"}
{"smiles": "CC[C@@H](CCC[C@@H](CO)N(CC(C)C)S(=O)(=O)c1ccc(CO)cc1)NC(=O)[C@H](Cc1ccccc1Cl)NC(=O)OC", "cells": "T lymphoid cells", "method": "microscopy", "result": ">10 µM"}
{"smiles": "O=C(NCc1ccccc1)c1ccc2c(c1)CCN(c1cc(=O)n(O)c3ncccc13)C2", "cells": "HeLa", "result": "<100 µM"}
{"smiles": "Cc1nc2sc3c(c2c(-c2ccc(C#N)cc2)c1C(OC(C)(C)C)C(=O)O)CCCC3", "cells": "MT-2", "result": ">20 µM"}
{"smiles": "NCc1ccc(S(=O)(=O)NCCc2ccc3c(n2)NCCC3)cc1", "cells": "PBMC", "result": "50 µM"}
{"smiles": "Cc1ccc(OCCc2cn(C[C@@]3(C)Cn4cc([N+](=O)[O-])nc4O3)nn2)cc1", "cells": "J774", "method": "MTT", "result": ">40 µg/mL"}
{"smiles": "CC(C)c1ccc(NC(=O)NCCc2ccc3c(n2)NCCC3)cc1", "cells": "PBMC", "result": "7 µM"}
{"smiles": "Cc1ccc(-c2c([C@H](OC(C)(C)C)C(=O)O)c(C)nc3sc4c(c23)CCCC4)c(F)c1", "cells": "MT-2", "result": ">20 µM"}
{"smiles": "Cc1ccc(OCc2cn(C[C@@]3(C)Cn4cc([N+](=O)[O-])nc4O3)nn2)cc1", "cells": "J774", "method": "MTT", "result": ">40 µg/mL"}
{"smiles": "Nc1cccc(-c2ccc3c(c2)CN(c2cc(=O)n(O)c4ncccc24)CC3)c1", "cells": "HeLa", "result": "<100 µM"}
{"smiles": "COc1cc(-c2c(C(OC(C)(C)C)C(=O)O)c(C)nc3sc4c(c23)CCCC4)ccn1", "cells": "MT-2", "result": ">20 µM"}
{"smiles": "C[C@]1(Cn2cc(COc3cccc(Cl)c3)nn2)Cn2cc([N+](=O)[O-])nc2O1", "cells": "J774", "method": "MTT", "result": ">40 µg/mL"}
{"smiles": "OC(CNCc1ccccc1)COc1ccc2ccccc2c1", "cells": "CHO", "method": "MTT", "result": "123.4 µM"}
{"smiles": "CN(CCc1ccccc1)C(=O)NCCc1ccc2c(n1)NCCC2", "cells": "PBMC", "result": "50 µM"}
{"smiles": "COc1ncc(-c2c(C(OC(C)(C)C)C(=O)O)c(C)nc3sc4c(c23)CCCC4)cn1", "cells": "MT-2", "result": ">20 µM"}
{"smiles": "CCOC(=O)N1CCC(Nc2cc(=O)n(O)c3ncccc23)CC1", "cells": "HeLa", "result": "<100 µM"}
{"smiles": "Cc1cccc(OCc2cn(C[C@@]3(C)Cn4cc([N+](=O)[O-])nc4O3)nn2)c1", "cells": "J774", "method": "MTT", "result": ">40 µg/mL"}
{"smiles": "O=c1cc(N2Cc3ccc(-c4ccccc4)cc3C2)c2cccnc2n1O", "cells": "HeLa", "result": "<100 µM"}
{"smiles": "Cc1ccc(SCc2cn(C[C@@]3(C)Cn4cc([N+](=O)[O-])nc4O3)nn2)cc1", "cells": "J774", "method": "MTT", "result": ">40 µg/mL"}
{"smiles": "COC(=O)N[C@H](C(=O)N[C@H](CCC[C@@H](CO)N(CCC(C)C)S(=O)(=O)c1ccc(CO)c(F)c1)C1CC1)C(c1ccc(F)cc1)c1ccc(F)cc1", "cells": "T lymphoid cells", "method": "microscopy", "result": ">10 µM"}
{"smiles": "CC(C)c1c(OCC(O)CN2CCN(c3ccnc4cc(Cl)ccc34)CC2)ccc2c1CCC1C(C)(C)CCC[C@]21C", "cells": "CHO", "method": "MTT", "result": "94.19 µM"}
{"smiles": "CCc1ccc(OCc2cn(C[C@@]3(C)Cn4cc([N+](=O)[O-])nc4O3)nn2)cc1", "cells": "J774", "method": "MTT", "result": ">40 µg/mL"}
{"smiles": "CC(C)c1c(OCC(O)CNCc2ccccc2)ccc2c1CCC1C(C)(C)CCC[C@]21C", "cells": "CHO", "method": "MTT", "result": "14.41 µM"}
{"smiles": "CCCN([C@H](CO)CCC[C@H](CC)NC(=O)[C@@H](NC(=O)OC)C(c1ccccc1)c1ccccc1)S(=O)(=O)c1ccc(N)cc1", "cells": "T lymphoid cells", "method": "microscopy", "result": ">10 µM"}
{"smiles": "Cc1nc2sc3c(c2c(-c2ccc4nccn4c2)c1C(OC(C)(C)C)C(=O)O)CCCC3", "cells": "MT-2", "result": ">20 µM"}
{"smiles": "CCOC(=O)c1c(O)c2cc(Br)cnc2n(O)c1=O", "cells": "HeLa", "result": "<100 µM"}
{"smiles": "CCOC(C(=O)O)c1c(C)nc2sc3c(c2c1-c1ccc2ncn(C)c2c1)CCCC3", "cells": "MT-2", "result": ">20 µM"}
{"smiles": "Cn1ccc2ccc(NC(=O)NCCc3ccc4c(n3)NCCC4)cc21", "cells": "PBMC", "result": "0.48 µM"}
{"smiles": "CN(Cc1ccccc1)C(=O)c1c(O)c2cccnc2n(O)c1=O", "cells": "HeLa", "result": "<100 µM"}
{"smiles": "CC(C)c1c(OCC(O)CN2CCN(c3ccccc3Cl)CC2)ccc2c1CCC1C(C)(C)CCC[C@]21C", "cells": "CHO", "method": "MTT", "result": "186 µM"}
{"smiles": "Cc1cccc(NC(=O)NCCc2ccc3c(n2)NCCC3)c1", "cells": "PBMC", "result": "8 µM"}
{"smiles": "CC[C@@H](CCC[C@@H](CO)N(CCC(C)C)S(=O)(=O)c1ccc(CO)cc1)NC(=O)[C@@H](N)C(c1ccccc1)c1ccccc1", "cells": "T lymphoid cells", "method": "microscopy", "result": ">10 µM"}
{"smiles": "O=C(NCCc1ccc2c(n1)NCCC2)Nc1ccc(C(F)(F)F)cc1", "cells": "PBMC", "result": "0.6 µM"}
{"smiles": "NCc1ccc(-c2cccc(-c3ccnc4c3c(O)cc(=O)n4O)c2)cc1", "cells": "HeLa", "result": "<100 µM"}
{"smiles": "CCCN([C@H](CO)CCC[C@H](CC)NC(=O)[C@H](Cc1ccccc1Cl)NC(=O)OC)S(=O)(=O)c1ccc(N)cc1", "cells": "T lymphoid cells", "method": "microscopy", "result": ">10 µM"}
{"smiles": "C[C@]1(Cn2cc(-c3ccc(F)cc3F)nn2)Cn2cc([N+](=O)[O-])nc2O1", "cells": "J774", "method": "MTT", "result": ">40 µg/mL"}
{"smiles": "OC(CNCc1ccccc1)COc1cccc2ccccc12", "cells": "CHO", "method": "MTT", "result": "8.27 µM"}
{"smiles": "Cc1nc2sc3c(c2c(-c2ccc(Cl)cc2F)c1[C@H](OC(C)(C)C)C(=O)O)CCCC3", "cells": "MT-2", "result": ">20 µM"}
{"smiles": "CC(C)c1c(OCC(O)CN2CCOCC2)ccc2c1CCC1C(C)(C)CCC[C@]21C", "cells": "CHO", "method": "MTT", "result": "5.61 µM"}
{"smiles": "CC[C@@H](CCC[C@@H](CO)N(CC(C)C)S(=O)(=O)c1ccc(N)cc1)NC(=O)[C@@H](NC(=O)OC)C(c1ccccc1)c1ccccc1", "cells": "T lymphoid cells", "method": "microscopy", "result": ">10 µM"}
{"smiles": "CC(C)c1c(OCC(O)CN2CCN(c3ccccc3)CC2)ccc2c1CCC1C(C)(C)CCC[C@]21C", "cells": "CHO", "method": "MTT", "result": "105 µM"}
{"smiles": "O=C(CCC(CCC(=O)NCCc1c[nH]c2ccccc12)(CCC(=O)NCCc1c[nH]c2ccccc12)NC(=O)CCOCC(COCCC(=O)NC(CCC(=O)NCCc1c[nH]c2ccccc12)(CCC(=O)NCCc1c[nH]c2ccccc12)CCC(=O)NCCc1c[nH]c2ccccc12)(COCCC(=O)NC(CCC(=O)NCCc1c[nH]c2ccccc12)(CCC(=O)NCCc1c[nH]c2ccccc12)CCC(=O)NCCc1c[nH]c2ccccc12)COCCC(=O)NC(CCC(=O)NCCc1c[nH]c2ccccc12)(CCC(=O)NCCc1c[nH]c2ccccc12)CCC(=O)NCCc1c[nH]c2ccccc12)NCCc1c[nH]c2ccccc12", "cells": "CD4+ T-cell", "method": "MTS", "result": ">100 µM"}
{"smiles": "O=C(Cc1ccccc1Cl)NCCc1ccc2c(n1)NCCC2", "cells": "PBMC", "result": "50 µM"}
{"smiles": "CC(C)c1c(OCC(O)CN2CCN(C)CC2)ccc2c1CCC1C(C)(C)CCC[C@]21C", "cells": "CHO", "method": "MTT", "result": "3.73 µM"}

For reference, 5 entries again:

smiles	cells	method	result
CC(C)c1c(OCC(O)CN2CCN(c3ccnc4cc(Cl)ccc34)CC2)ccc2c1CCC1C(C)(C)CCC[C@]21C	CHO	MTT	94.19 µM
Cc1ccc(SCc2cn(C[C@@]3(C)Cn4cc([N+](=O)[O-])nc4O3)nn2)cc1	J774	MTT	>40 µg/mL
Cc1nc2sc3c(c2c(-c2ccc(Cl)cc2F)c1[C@H](OC(C)(C)C)C(=O)O)CCCC3	MT-2		>20 µM
Cc1cccc(OCc2cn(C[C@@]3(C)Cn4cc([N+](=O)[O-])nc4O3)nn2)c1	J774	MTT	>40 µg/mL
O=C(NCCc1ccc2c(n1)NCCC2)Nc1ccc(C(F)(F)F)cc1	PBMC		0.6 µM

An empty or dashed field is not shown. Lines come from different laboratories, so protocols vary.